A mixed list of measured activities; the numbers were collected in NIAID ChemDB.

Shared fields: tests on isolated targets

Blank or dashed fields: not listed here.

smiles	species	strain or isolate	changes	protein	read by	conditions	endpoint	dose	value
CO[P@](=O)(c1cc(C)cc(/C=C/C#N)c1)c1c(C(N)=O)[nH]c2ccc(Cl)cc12	HIV		L1001/K103N	Reverse transcriptase			IC50		0.4 µM
O=C1N(Cc2ccc(CO)cc2)[C@H](COc2ccccc2)[C@H](O)[C@@H](O)[C@@H](COc2ccccc2)N1Cc1ccc(CO)cc1	HIV		PR-I84V L90M	Protease	fluorescence		fold resistance		0.913
CCCCCCC[C@H](O)C[C@@H]1CC[C@H]2C(C(=O)O[C@H](C)CCCCCCC[C@@H]3C[C@@H]4CC[C@@H]5C[C@H](C)NC(=[N+]54)N3)=C(C)NC(N)=[N+]12	HIV-1	NL4-3		Nef	ELISA		inhibition	5 µM	87.2%
Cc1cccc(C)c1OCC(=O)N[C@@H](Cc1ccccc1)[C@H](O)CN1CC[C@@H](Sc2ccncc2)C[C@H]1C(=O)NC(C)(C)C	HIV		PR-L10I L23I M46I I84V	Protease	fluorescence		fold resistance		35.8
CC[C@H]1C=CCC[C@@]2(C[C@@H]3CC[C@@H]4[C@H](C(=O)OCc5ccccc5)[C@]5(CCC[C@@H](C)O5)NC(=[N+]34)N2)O1	HIV-1	NL4-3		Nef	ELISA		inhibition	5 µM	82.9%
CNC(=O)[C@@H](NC(=O)[C@H](OCc1ccccc1)[C@H](O)[C@@H](O)[C@@H](OCc1ccccc1)C(=O)N[C@H]1c2ccccc2C[C@H]1O)C(C)C	HIV		PR-V82A I84V L90M	Protease			Ki		0.0021 µM
CC[C@H]1C=CCC[C@@]2(C[C@@H]3CC[C@H]4[C@H](C(=O)OCCCCCCCCCCCCCCCC(=O)N(CCC[NH3+])C[C@@H](O)CC[NH3+])[C@@]5(CCC[C@@H](C)O5)NC(=[N+]34)N2)O1	HIV-1	NL4-3		Nef	ELISA		inhibition	5 µM	83.9%
Cc1c(Sc2ccccc2)n(COCCO)c(=O)[nH]c1=O	HIV		RT-K103N Y181I Y188L	Reverse transcriptase			fold resistance		>10
Cc1cn([C@@H]2O[C@H](CO[Si](C)(C)C(C)(C)C)[C@@]3(OS(=O)(=O)C=C3N)[C@H]2O[Si](C)(C)C(C)(C)C)c(=O)[nH]c1=O	HIV		RT-N137S	Reverse transcriptase	nucleotide incorporation / radiometric		fold resistance		0.63
CC(C)C[C@H](NC(=O)[C@H](C)NC(=O)C[C@H](O)[C@H](CC(C)C)NC(=O)[C@@H](NC(=O)[C@@H](NC(=O)C(C)O)C(C)C)C(C)C)[C@@H](O)CC(=O)O	HIV-2			Protease	HPLC	pH 4.7	IC50		0.75 µM
O=S1(=O)N(Cc2ccc(-c3cccs3)cc2)[C@H](COc2ccccc2)[C@H](O)[C@@H](O)[C@@H](COc2ccccc2)N1Cc1ccc(-c2cccs2)cc1	HIV-1		PR-G48V L90M	Protease			fold resistance		19.6
C=CCOC(=O)C1=C(C)NC(N)=[N+]2[C@H](C[C@@H](O)CCCCCCOCc3ccccc3)CC[C@H]12	HIV-1	NL4-3		Nef	ELISA		inhibition	5 µM	102.4%
CC(C)=CCOc1cc(NC(=S)c2ccoc2C)ccc1Cl	HIV		RT-P95A	Reverse transcriptase	nucleotide incorporation / radiometric		fold resistance		0.13
CC[C@H]1C=CCC[C@@]2(C[C@@H]3CC[C@@H]4[C@H](C(=O)OCCCCCCCCCCC(=O)N(CCC[NH3+])C[C@@H](O)CC[NH3+])[C@]5(CCC[C@@H](C)O5)NC(=[N+]34)N2)O1	HIV-1	NL4-3		Nef	ELISA		inhibition	5 µM	93.6%
CC(C)[C@H](NC(=O)c1ccc2ccccc2n1)C(=O)N[C@@H](Cc1ccccc1)[C@H](O)CN1CC[C@@H](SCc2cccnc2)C[C@H]1C(=O)NC(C)(C)C	HIV		PR-L10I L23I M46I I84V	Protease	fluorescence		Ki		0.000071 µM
CCCCCCCCC[C@@H]1C[C@@H]2CCC3=C(C(=O)O[C@H](C)CCCCC[C@@H]4C[C@@H]5CC[C@@H]6C[C@H](C)NC(=[N+]65)N4)[C@@H](C)NC(=[N+]32)N1	HIV-1	NL4-3		Nef	ELISA		IC50		<5 µM
Nc1nc2c(ncn2[C@H]2CC[C@@H](COP(=O)(O)OP(=O)(O)OP(=O)(O)O)O2)c(=O)[nH]1	HIV		RT-N137Q	Reverse transcriptase	nucleotide incorporation / radiometric		IC50		0.5 µM
O=S1(=O)N(Cc2ccc(CO)cc2)[C@H](COc2ccccc2)[C@H](O)[C@@H](O)[C@@H](COc2ccccc2)N1Cc1ccc(CO)cc1	HIV		PR-V82A I84V L90M	Protease			fold resistance		37.7

Again, the opening 2 rows:

smiles,species,strain or isolate,changes,protein,read by,conditions,endpoint,dose,value
CO[P@](=O)(c1cc(C)cc(/C=C/C#N)c1)c1c(C(N)=O)[nH]c2ccc(Cl)cc12,HIV,,L1001/K103N,Reverse transcriptase,,,IC50,,0.4 µM
O=C1N(Cc2ccc(CO)cc2)[C@H](COc2ccccc2)[C@H](O)[C@@H](O)[C@@H](COc2ccccc2)N1Cc1ccc(CO)cc1,HIV,,PR-I84V L90M,Protease,fluorescence,,fold resistance,,0.913

Neighbouring rows are from separate reports. Percent inhibition refers to the dose given; in toxicity tests it is the harm to the cells. ICn is the concentration giving n% inhibition. Fold resistance: result on the changed form divided by that on wild type.